Consider one compound from ChEMBL document CHEMBL3627621, “Interactions of a potent cyclic peptide inhibitor with the light chain of botulinum neurotoxin A: Insights from X-ray crystallography” (2015).

Sequences of proteins named here, by UniProt entry; tags and fusion partners are left off.
UniProt P0DPI0, whole entry, looked up: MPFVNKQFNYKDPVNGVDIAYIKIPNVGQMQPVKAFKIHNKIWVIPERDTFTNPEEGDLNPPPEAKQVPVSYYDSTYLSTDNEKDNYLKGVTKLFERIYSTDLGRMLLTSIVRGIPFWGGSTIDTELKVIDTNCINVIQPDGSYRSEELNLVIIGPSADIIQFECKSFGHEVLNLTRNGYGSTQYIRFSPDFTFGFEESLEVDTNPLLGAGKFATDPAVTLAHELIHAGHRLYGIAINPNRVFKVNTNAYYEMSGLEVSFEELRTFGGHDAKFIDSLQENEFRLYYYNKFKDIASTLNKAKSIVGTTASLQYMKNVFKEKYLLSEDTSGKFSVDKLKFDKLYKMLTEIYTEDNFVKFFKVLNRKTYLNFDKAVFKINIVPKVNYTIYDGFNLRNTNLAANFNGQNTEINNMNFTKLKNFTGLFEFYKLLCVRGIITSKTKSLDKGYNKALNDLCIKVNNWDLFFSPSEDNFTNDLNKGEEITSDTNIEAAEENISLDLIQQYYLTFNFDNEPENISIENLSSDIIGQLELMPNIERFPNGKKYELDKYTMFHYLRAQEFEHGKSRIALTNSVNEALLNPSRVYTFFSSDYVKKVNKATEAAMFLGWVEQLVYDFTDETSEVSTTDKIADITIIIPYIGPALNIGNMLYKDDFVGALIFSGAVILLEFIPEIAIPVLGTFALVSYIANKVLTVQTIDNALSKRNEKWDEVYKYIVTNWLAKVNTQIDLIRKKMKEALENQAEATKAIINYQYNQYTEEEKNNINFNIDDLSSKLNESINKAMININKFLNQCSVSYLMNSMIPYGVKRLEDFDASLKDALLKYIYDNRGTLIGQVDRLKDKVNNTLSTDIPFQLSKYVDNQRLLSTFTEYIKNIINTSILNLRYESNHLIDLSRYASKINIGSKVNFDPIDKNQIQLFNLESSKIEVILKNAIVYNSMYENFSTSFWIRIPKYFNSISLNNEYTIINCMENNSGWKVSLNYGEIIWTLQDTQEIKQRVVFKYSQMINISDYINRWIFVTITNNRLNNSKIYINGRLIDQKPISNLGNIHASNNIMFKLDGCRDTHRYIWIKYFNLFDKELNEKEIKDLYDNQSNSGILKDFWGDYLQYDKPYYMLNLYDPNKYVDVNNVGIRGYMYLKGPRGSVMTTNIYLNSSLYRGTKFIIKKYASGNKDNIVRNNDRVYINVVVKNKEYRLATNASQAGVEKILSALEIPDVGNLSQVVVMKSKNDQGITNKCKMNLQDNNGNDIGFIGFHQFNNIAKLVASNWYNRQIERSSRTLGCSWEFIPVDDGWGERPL

SMILES strings stand for the structures. Calls of active or inactive are those of the source. The rule behind the calls is not given here.

For this assay, the target named is Botulinum neurotoxin type A (Clostridium botulinum) (UniProt P0DPI0). In words: Inhibition of Clostridium botulinum BoNT/A light chain-mediated SNAP-25 cleavage pretreated for 2 hrs by FRET assay using CFP-SNAP-25 (141-206)-YFP as substrate.

As to `CC(C)C[C@H](NC(=O)[C@@H]1CSSC[C@H](N)C(=O)NCC[C@H](N)C(=O)N[C@@H](CCCNC(=N)N)C(=O)N[C@@H](Cc2cc3ccccc3[nH]2)C(=O)N[C@@H]([C@H](C)O)C(=O)N[C@@H](CCCCN)C(=O)N1)C(N)=O`, the inhibition result was “Active”.
